Share of PSTVd loop 6 variants by leaf site

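A pool of all variants was put on leaves of three Nicotiana benthamiana plants. Samples came from the inoculated region at 5 days, the leaf margin at 10 and upper systemic leaves at 12.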

The pool varies loop 6 of the PSTVd intermediate strain in the pattern UNNNCGNNNG; wild type is UGACCGCGAG (upper and lower strand joined, each 5' to 3', the first 5 letters being the upper strand, closing pairs included).

Numbers give reads per thousand; 0 = not seen among the reads, higher = more abundant. Each site shows the three plants. "Pool" is the share in the plasmid pool used as inoculum, on the same scale. The inoculated region was read from the minus strand, the other sites from the plus strand. With 36,220-57,551 reads a sample, very low values are single reads.

{"sequence": "UAGGCGAGUG", "pool": "0.170", "inoculated region": "0.174 / 0.0898 / 0.0553", "leaf margin": "0.0276 / 0 / 0", "systemic leaves": "0 / 0 / 0"}
{"sequence": "UAGGCGUGAG", "pool": "0.131", "inoculated region": "0.209 / 0.0359 / 0.0922", "leaf margin": "0 / 0 / 0.0232", "systemic leaves": "0 / 0 / 0"}
{"sequence": "UAGUCGGCAG", "pool": "0.170", "inoculated region": "0.0869 / 0.0539 / 0.111", "leaf margin": "0 / 0 / 0", "systemic leaves": "0 / 0 / 0"}
{"sequence": "UCCCCGACGG", "pool": "0.275", "inoculated region": "0.122 / 0.126 / 0.129", "leaf margin": "0 / 0 / 0.0232", "systemic leaves": "0 / 0 / 0"}
{"sequence": "UCGGCGUAGG", "pool": "0.301", "inoculated region": "0.0521 / 0.0719 / 0", "leaf margin": "0 / 0 / 0", "systemic leaves": "0 / 0 / 0"}
{"sequence": "UCGUCGGCGG", "pool": "0.235", "inoculated region": "0.0869 / 0.0898 / 0.0184", "leaf margin": "0 / 0 / 0.0232", "systemic leaves": "0 / 0 / 0"}
{"sequence": "UCUACGGAGU", "pool": "0.0131", "inoculated region": "0 / 0 / 0", "leaf margin": "0 / 0 / 0", "systemic leaves": "0 / 0 / 0"}
{"sequence": "UGAACGUUGG", "pool": "0.170", "inoculated region": "0.122 / 0.0898 / 0.221", "leaf margin": "0 / 0 / 0.0232", "systemic leaves": "0 / 0 / 0"}
{"sequence": "UGACCGUGGG", "pool": "0.105", "inoculated region": "0.139 / 0.216 / 0.0553", "leaf margin": "0.359 / 0.0252 / 0.0232", "systemic leaves": "0.0180 / 0.0808 / 0.0410"}
{"sequence": "UGAUCGGAUG", "pool": "0.340", "inoculated region": "0.122 / 0.0898 / 0.129", "leaf margin": "0 / 0 / 0", "systemic leaves": "0 / 0 / 0"}
{"sequence": "UGCCCGAUUG", "pool": "0.340", "inoculated region": "0.122 / 0.0898 / 0", "leaf margin": "0 / 0 / 0", "systemic leaves": "0 / 0 / 0"}
{"sequence": "UGCUCGGAGG", "pool": "0.209", "inoculated region": "0.0695 / 0.0719 / 0.0738", "leaf margin": "0 / 0 / 0", "systemic leaves": "0 / 0 / 0"}
{"sequence": "UGGGCGUUUG", "pool": "0.261", "inoculated region": "0.0869 / 0.0898 / 0.0922", "leaf margin": "0 / 0 / 0.0232", "systemic leaves": "0 / 0 / 0"}
{"sequence": "UGUCCGGGCG", "pool": "0.222", "inoculated region": "0.104 / 0.0719 / 0.0553", "leaf margin": "0 / 0 / 0", "systemic leaves": "0 / 0 / 0"}
{"sequence": "UGUGCGUUUG", "pool": "0.379", "inoculated region": "0.156 / 0.126 / 0.111", "leaf margin": "0.0276 / 0 / 0.0696", "systemic leaves": "0 / 0 / 0.0205"}
{"sequence": "UGUUCGACGG", "pool": "0.418", "inoculated region": "0.0869 / 0.0898 / 0.0553", "leaf margin": "0 / 0 / 0", "systemic leaves": "0 / 0 / 0"}
{"sequence": "UUAGCGGGUG", "pool": "0.353", "inoculated region": "0.0348 / 0.0898 / 0.0738", "leaf margin": "0.0276 / 0 / 0", "systemic leaves": "0 / 0 / 0.0205"}
{"sequence": "UUGACGCGAG", "pool": "0.183", "inoculated region": "0.156 / 0.216 / 0.129", "leaf margin": "0.193 / 0.252 / 0.325", "systemic leaves": "0 / 0 / 0.0820"}
{"sequence": "UUGGCGAAAG", "pool": "0.327", "inoculated region": "0.139 / 0.0719 / 0.0738", "leaf margin": "0 / 0 / 0", "systemic leaves": "0 / 0 / 0"}
{"sequence": "UUGUCGAUGG", "pool": "0.379", "inoculated region": "0.104 / 0.0539 / 0.0922", "leaf margin": "0 / 0 / 0", "systemic leaves": "0 / 0 / 0"}
{"sequence": "UUUUCGACUG", "pool": "0.248", "inoculated region": "0.156 / 0.0180 / 0.129", "leaf margin": "0.0276 / 0 / 0.0232", "systemic leaves": "0 / 0 / 0"}

Excerpt, the final 2 entries:

sequence	pool	inoculated region	leaf margin	systemic leaves
UUGUCGAUGG	0.379	0.104 / 0.0539 / 0.0922	0 / 0 / 0	0 / 0 / 0
UUUUCGACUG	0.248	0.156 / 0.0180 / 0.129	0.0276 / 0 / 0.0232	0 / 0 / 0

For reference, wild type rose from 20.7 per thousand in the pool to 195, 198, 203 (inoculated region), 629, 591, 734 (leaf margin) and 942, 870, 868 (systemic leaves). The authors trace changes outside the varied positions to PCR and sequencing errors or to mutation in the plant; presence does not show that a variant is infectious alone.

The measurements come from Wu et al. 2024 (doi:10.1371/journal.ppat.1012142).